Assay results reported in PMC12856293 (The Journal of Biological Chemistry, 2025).

Tests used:
[1] = system: CCCC(=O)SCCNC(=O)CCNC(=O)[C@H](O)C(C)(C)COP(=O)(O)OP(=O)(O)OC[C@H]1O[C@@H](n2cnc3c(N)ncnc32)[C@H](O)[C@@H]1OP(=O)(O)O; assay: purified protein; settings: pH 7.2; 25.0 °C
[2] = system: CCCCC(=O)SCCNC(=O)CCNC(=O)[C@H](O)C(C)(C)COP(=O)(O)OP(=O)(O)OC[C@H]1O[C@@H](n2cnc3c(N)ncnc32)[C@H](O)[C@@H]1OP(=O)(O)O; assay: purified protein; settings: pH 7.2; 25.0 °C

## TrzAMtb (Rv1356c) (Mycobacterium tuberculosis H37Rv)
[1]
  Km: 85 ± 10 µM
[2]
  Km: 23 ± 3 µM
